Source: US4929718A, “Synthetic noxiustoxin related peptides” (Universidad Nacional Autonoma De Mexico, priority 1987, dated 1990)

Tested on: albino mice (strain CD1)
Assay: "in vivo" challenge / lethality tests of synthetic peptides by injection of mice
Details: dose and route not given in the sentence

## CC[C@H](C)[C@H](NC(=O)[C@@H](N)[C@@H](C)O)C(=O)N[C@H](C(=O)N[C@@H](CC(N)=O)C(=O)N[C@H](C(=O)N[C@@H](CCCCN)C(=O)N[C@@H](CS)C(=O)N[C@H](C(=O)N[C@@H](CO)C(=O)O)[C@@H](C)O)C(C)C)[C@@H](C)CC [NTX 1-9, Threonine-Isoleucine-Isoleucine-Asparagine-Valine-Lysine-Cysteine-Threonine-Serine]
  toxicity in injected mice: symptoms of intoxication similar to those observed with native NTX

## Tyrosine-Glycine-Serine-Serine-Alanine-Glycine-Alanine-Lysine-Cysteine-Methionine-Asparagine-Glycine-Lysine-Cysteine-Lysine-Cysteine-Tyrosine-Asparagine-Asparagine [NTX 21-39]
  toxicity in injected mice: not toxic
